Patent US20230277680A1, “CONJUGATE OF A SINGLE DOMAIN ANTIBODY, A SAPONIN AND AN EFFECTOR MOLECULE, PHARMACEUTICAL COMPOSITION COMPRISING THE SAME, THERAPEUTIC USE OF SAID PHARMACEUTICAL COMPOSITION” (SAPREME TECHNOLOGIES B.V., priority 2020, published 2023)

Tested on: A431 tumor
Test: A431 xenograph mouse tumor model, tumor volume
Assay type: in vivo
Settings: second experiment: 25 mg/kg cetuximab-(Cys-L-SO1861)^4 i.p. + 0.03 mg/kg toxin conjugate i.v., day 9, 14, then weekly; cetuximab = positive control
Procedure: The conjugate was tested in a A431 (EGFR^++) xenograph mouse tumor model for EGFR tumor targeted cell killing as illustrated in FIG. 1J. Dosings started at day 12 when tumors reached ˜150 mm^3 in size and tumor volume was determined after every dosing.
Female Balb/c nude mice were injected subcutaneously with a suspension of human A431 tumor cells. Under the skin of the mice, a human epidermal carcinoma developed in the xenograft animal tumor model. After injection of the tumor cells, the xenograft tumor was allowed to develop to a size of approximately 170-180 mm^3. The A431 tumor cells have the following characteristics: high EGFR expressors, medium CD71 expressors, low HER2 expressors.
In Table 8A, the results of the treatment of control mice and tumor-bearing mice are presented. Tumor-bearing mice were treated with the indicated antibodies directed to either human Her2/neu, human EGFR, or human CD71, which are cell-surface receptors on the xenograft tumor. Cetuximab was covalently conjugated with saponin SO1861. […] The dose of the ADCs was sub-optimal in the tumor model. That is to say, from previous experiments, it was established at which sub-optimal dose of the ADCs no tumor-regression or arrest of tumor growth would be observable.
The 2 target 2-components system (2T2C) is the combination treatment of mAb1-SO1861 and mAb2-protein toxin, (FIG. 1B-D).

## Cetuximab: monoclonal antibody recognizing and binding human EGFR
  tumor response (in words): only tumor growth inhibition, but no regression
